Pooled drug test results. Numbers come from NIAID ChemDB, via PubChem.

Shared fields: whole-cell or culture tests; agent: Epstein-Barr virus; endpoint: EC50

Conditions beyond the fields shown may differ between rows.

smiles | cell line | strain | read by | value
Nc1ncnc2c1ncn2[C@H]1C[C@]12C[C@H]2CO | DAUDI | - | plaque count | 22 µM
CCC(=O)O[C@H]1C[C@H](n2cc(/C=C/Br)c(=O)[nH]c2=O)O[C@@H]1COP1(=O)OCc2cccc(C)c2O1 | P3HR-1 | - | - | >175 µM
Nc1ncnc2c1ncn2C[C@@H](CF)OCP(=O)(O)O | P3HR-1 | - | hybridisation | ≥10 µg/mL
Nc1ccn(C[C@@H](CO)OCP(=O)(O)O)c(=O)n1 | P3HR-1 | - | PCR | 0.065 µg/mL
N#CCCn1c2ccccc2c2c3c(c4c5ccccc5[nH]c4c21)C(=O)NC3 | Akata | - | - | <0.004 µM
Nc1nc2c(ncn2COCCO)c(=O)[nH]1 | DAUDI | - | antigen | 5.3 µM
CO[C@H]1O[C@@H](n2ccc(=O)[nH]c2=O)C[C@@H]1N=[N+]=[N-] | P3HR-1 | - | - | >30 µM
CC(=O)O[C@H]1C[C@H](n2cc(/C=C/Br)c(=O)[nH]c2=O)O[C@@H]1COP1(=O)OCc2cccc(C)c2O1 | P3HR-1 | - | - | >50 µg/mL
Cc1ccc(S(=O)(=O)Oc2nn(C3=CCCO3)nc2C(F)(F)C(F)(F)C(F)(F)F)cc1 | - | B95-8 lymphoblastoid | PCR | 7 µM
Nc1ccn([C@@H]2CO[C@H](CO)O2)c(=O)n1 | P3HR-1 | - | - | 0.83 µM
Cc1cccc2c1OP(=O)(OC[C@H]1O[C@@H](n3cc(/C=C/Br)c(=O)[nH]c3=O)C[C@@H]1OC(=O)C(C)C)OC2 | P3HR-1 | - | - | >171 µM
C[C@H](Cn1cnc2c(N)ncnc21)OCP(=O)(O)O | P3HR-1 | - | hybridisation | 10 µg/mL
Nc1ncnc2c1ncn2[C@@H]1C[C@@H](O)[C@H](CO)O1 | DAUDI | - | - | 5.7 µM
Nc1ccn([C@@H]2CO[C@H](CO)S2)c(=O)n1 | P3HR-1 | - | - | 8.3 µM
CC(=O)O/N=C1/C[C@H](n2cc(C)c(=O)[nH]c2=O)O[C@@H]1CO | P3HR-1 | - | hybridisation | 0.5 µg/mL
Nc1ccn([C@@H]2C[C@@H](O)[C@H](CO)O2)c(=O)n1 | DAUDI | - | - | >50 µM
Cc1ccc(S(=O)(=O)Oc2nn(C3=CCCO3)nc2C(F)(F)F)cc1 | - | B95-8 lymphoblastoid | PCR | 10 µM
COC[C@H]1OC(=O)c2coc3c2[C@@]1(C)C1=C(C3=O)C2CCC(=O)[C@@]2(C)C[C@H]1OC(C)=O | Akata | - | PCR | 0.367 µM
Cc1cn([C@H]2C[C@H](N=[N+]=[N-])[C@@H](CO)O2)c(=O)[nH]c1=O | P3HR-1 | - | hybridisation | 10 µg/mL
Nc1ncnc2c1ncn2CCOCP(=O)(O)O | P3HR-1 | - | PCR | 0.42 µg/mL
O=P(O)(O)COCCn1cnc2c(NC3CC3)ncnc21 | P3HR-1 | - | hybridisation | 9 µg/mL
Cc1ccc(S(=O)(=O)Oc2nn([C@H]3O[C@H](CO)[C@@H](O)[C@H](O)[C@H]3Cl)nc2C(F)(F)F)cc1 | - | B95-8 lymphoblastoid | PCR | 21 µM
CC(=O)c1c(O)c(C)c(O)c(Cc2c(O)c3c(c(C(=O)/C=C/c4ccccc4)c2O)OC(C)(C)C=C3)c1O | Akata | - | PCR | 0.983 µM
O=C(Nc1ccccc1)c1c(O)[nH]c(=S)[nH]c1=O | P3HR-1 | - | PCR | 32.15 µM
CO[C@H]1C[C@H](n2cc(/C=C/Br)c(=O)[nH]c2=O)O[C@@H]1COP1(=O)OCc2cccc(C)c2O1 | P3HR-1 | - | - | >50 µg/mL
Nc1ccn([C@@H]2C[C@@H](O)[C@H](CO)O2)c(=O)n1 | DAUDI | - | - | >50 µM
O=C1Cc2c([nH]c3ccc(Br)cc23)-c2ccccc2N1 | Akata | - | PCR | 0.681 µM
Cc1cn([C@@H]2C[C@@H](O)[C@H](CO)O2)c(=O)[nH]c1=O | DAUDI | - | - | >50 µM
CC(=O)O[C@H]1C[C@H](n2cc(/C=C/Br)c(=O)[nH]c2=O)O[C@@H]1COP1(=O)OCc2cccc(C)c2O1 | P3HR-1 | - | - | >89.7 µM
COC(=O)/C=C/c1cc(O)ccc1O | Akata | - | PCR | 2.373 µM
Nc1ncnc2c1ncn2[C@H]1C[C@]12C[C@@H]2CO | DAUDI | - | plaque count | 4.8 µM
CC(C)Nc1nc2cc(Cl)c(Cl)cc2n1[C@H]1O[C@@H](CO)[C@H](O)[C@@H]1O | Akata | - | - | 0.63 µM
Nc1ccn([C@H]2CO[C@@H](CO)O2)c(=O)n1 | P3HR-1 | - | - | 1.5 µM

An empty or dashed field is not shown. ECn: concentration that inhibits the pathogen or its effect by n%.